Data as given in PubChem BioAssay AID1259414 (Drosophila RNAi Screening Center, 2018)

Aim: 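Genome-wide screen for host control of endosymbiont load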 (primary screen)
Cell system: Drosophila JW18 cells infected with Wolbachia
Reagents: long dsRNA against Drosophila genes, 0.25 µg dsRNA per well of a 384-well plate
Timing: 5 days
Conditions: cells persistently infected with Wolbachia before knock-down; no added drug
Measurement: 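Imaged fluorescence in situ signal for Wolbachia 23S rRNA per DAPI-counted host cell, given as a robust z-score within each plate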
Scale: Wolbachia per cell robust z: higher = more Wolbachia per host cell than the plate typical
Hit rule: 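Hit when robust z is 1.5 or more, or -1.5 or less, in at least two of three replicates; excludes dsRNAs with several or no targets, genes not expressed in JW18 and well A1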
In all, the deposit lists about 24,000 reagents; this is a random part of those with a known target gene and a result. In the full data, about 1,210 (5%) got an active call. 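Inactive calls also include excluded dsRNAs with several or no targets, genes unexpressed in JW18, and well A1, regardless of score.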 Unmarked entries are inactive. Names joined by + are all predicted targets of the reagent.

The first 4 records, ahead of the listing:
no.	target	amplicon	Wolbachia per cell robust z, rep 1	Wolbachia per cell robust z, rep 2	Wolbachia per cell robust z, rep 3
1	SdhAL (GeneID 39348)	DRSC10539	-1.01	0.624	-0.647
2	CG34030 (GeneID 3885636)	DRSC38849	-0.183	-1.17	-0.746
3	CCT5 (GeneID 36308)	DRSC07357	1.59 (active)	-0.537	2.57
4	CCT5 (GeneID 36308)	DRSC26229	0.822	-0.207	0.62

Results, repeating the preview:
no.	target	amplicon	Wolbachia per cell robust z, rep 1	Wolbachia per cell robust z, rep 2	Wolbachia per cell robust z, rep 3
1	SdhAL (GeneID 39348)	DRSC10539	-1.01	0.624	-0.647
2	CG34030 (GeneID 3885636)	DRSC38849	-0.183	-1.17	-0.746
3	CCT5 (GeneID 36308)	DRSC07357	1.59 (active)	-0.537	2.57
4	CCT5 (GeneID 36308)	DRSC26229	0.822	-0.207	0.62
5	Cyp4p2 (GeneID 35946)	DRSC07373	0.45	0.622	-0.91
6	Cyp4p2 (GeneID 35946)	DRSC26900	-6.56	-0.207	-0.347
7	CG3502 (GeneID 37695)	DRSC04381	-0.0777	0.87	-2.99
8	insc (GeneID 37355)	DRSC04695	0.579	-0.165	1.32
9	CG16736 (GeneID 41101)	DRSC15145	-3.75	0.824	0.708
10	CG4374 (GeneID 42767)	DRSC15570	-3.36	0.582	0.703
11	CG4374 (GeneID 42767)	DRSC27482	0.638	-1.17	0.685
12	Psf1 (GeneID 38136)	DRSC08638	0.77	0.416	0.805
13	Psf1 (GeneID 38136)	DRSC24486	0.239	-0.191	-0.424
14	CG6479 (GeneID 39930)	DRSC10647	0.557	0.645	-1.43
15	CG30384 (GeneID 246584)	DRSC06032	0.456	-1.11	0.555
16	CG40191 (GeneID 3354930)	DRSC21041	-1.74	-0.148	-0.303
17	B4 (GeneID 34767)	DRSC01868	-5.51 (active)	-1.46	-1.61
18	B4 (GeneID 34767)	DRSC03175	1.13 (active)	-4.19	-1.81
19	z (GeneID 31230)	DRSC23134	-0.416	-0.227	0.553
20	z (GeneID 31230)	DRSC40820	-1.22	-2.06	-1.22
21	CG16826 (GeneID 34741)	DRSC02527	1.08	0.91	-4.68
22	CG5070 (GeneID 32705)	DRSC19932	-0.308	0.18	-0.485
23	CG5070 (GeneID 32705)	DRSC28082	1.03	1.59	2.04
24	Vps36 (GeneID 39523)	DRSC09785	0.0724	0.255	1.33
25	Spx (GeneID 31558)	DRSC18720	-3.86	0.299	-0.0716
26	Spx (GeneID 31558)	DRSC23542	2.1 (active)	6.97	5.77
27	CG1603 (GeneID 35683)	DRSC06602	1.36	-1.19	-2.08
28	CG1603 (GeneID 35683)	DRSC27982	-1.26	0.776	-0.81
29	CG6293 (GeneID 41259)	DRSC16011	-0.105	-5.77	-0.188
30	CG6293 (GeneID 41259)	DRSC28774	0.154	0.426	1.61
31	CG14564 (GeneID 40425)	DRSC11725	-0.491	0.808	-5.13
32	CG14564 (GeneID 40425)	DRSC22388	0.778	-1.71	0.517
33	ND-MNLL (GeneID 31697)	DRSC18159	-0.861	0.641	-0.727
34	CG7329 (GeneID 34457)	DRSC03046	0.304	-0.00453	0.885
35	CG7329 (GeneID 34457)	DRSC26137	-0.0902	1.07	-0.82
36	S6k (GeneID 38654)	DRSC11276	-0.679	1.14	0.016
37	S6k (GeneID 38654)	DRSC40754	-1.12	-1.09	1.19
38	CG32115 (GeneID 317862)	DRSC22607	-0.904	-0.69	0.0101
39	bor (GeneID 53565)	DRSC16915	0.75 (active)	-3.49	-1.97
40	Sb (GeneID 41958)	DRSC16851	0.81	1.37	0.595
41	Sb (GeneID 41958)	DRSC29250	-4.95	-0.0203	0.635
42	Su(var)2-10 (GeneID 35927)	DRSC07721	1.07	1.87	0.2
43	Su(var)2-10 (GeneID 35927)	DRSC28335	-0.192	-0.859	-0.624
44	Arr2 (GeneID 38993)	DRSC09670	-1.79	1.12	0.488
45	Doc2 (GeneID 39038)	DRSC22716	0.57	0.193	-0.533
46	Doc2 (GeneID 39038)	DRSC25293	0.702	-0.0798	-0.598
47	Rgk3 (GeneID 5740446)	DRSC04250	-0.367	-0.278	0.0953
48	Rgk3 (GeneID 5740446)	DRSC04254	-1	-0.00184	0.17
49	Rgk3 (GeneID 5740446)	DRSC04255	-1.32	-2.71	-1.17
50	Rgk3 (GeneID 5740446)	DRSC28131	-0.2	-0.722	-0.203
51	CG7953 (GeneID 34801)	DRSC01902	-9	0.413	0.716
52	CG31819 (GeneID 260658)	DRSC01532	1.03	-1.09	-0.76
53	CG31819 (GeneID 260658)	DRSC27735	-2.59	0.709	0.946
54	Pde11 (GeneID 35107)	DRSC02028	0.317	-1.29	-0.787
55	Pde11 (GeneID 35107)	DRSC02460	-0.935	1.13	1.09
56	Pde11 (GeneID 35107)	DRSC26665	0.367	-0.564	0.522
57	RpS15Ab + RpS15Aa	DRSC06129	2.91	2.57	-3.98
58	CG6951 (GeneID 40222)	DRSC10755	-0.707	0.574	0.674
59	rno (GeneID 38027)	DRSC08584	-1.66 (active)	-1.54	-0.98
60	mtt (GeneID 35832)	DRSC05106	1.36	-0.258	1.12
61	mtt (GeneID 35832)	DRSC05107	1.39	0.43	-0.519
62	mtt (GeneID 35832)	DRSC06753	0.87	-1.02	0.419
63	mtt (GeneID 35832)	DRSC07235	0.114	0.732	0.476
64	Tapdelta (GeneID 45680)	DRSC05946	0.786	1.69	0.816
65	CG13857 (GeneID 42627)	DRSC14707	0.443	1.55	-0.576
66	Abi (GeneID 41718)	DRSC14099	0.959	0.757	0.307
67	Abi (GeneID 41718)	DRSC27275	-0.0765	1.96	1.19
68	CG42493 (GeneID 8674013)	DRSC40609	-2.21	-1.26	-1.75
